Among the data in ChEMBL document CHEMBL1144877, “A comparison of phosphonothioic acids with phosphonic acids as phosphatase inhibitors” (2003) are NI values, retold here.

The source made the active and inactive calls. The calls are words filed in the database; no cut-off is given here.

Assay [1] addresses T1, Protein tyrosine phosphatase receptor type C-associated protein (Homo sapiens) (UniProt Q14761).
T1 sequence (whole entry): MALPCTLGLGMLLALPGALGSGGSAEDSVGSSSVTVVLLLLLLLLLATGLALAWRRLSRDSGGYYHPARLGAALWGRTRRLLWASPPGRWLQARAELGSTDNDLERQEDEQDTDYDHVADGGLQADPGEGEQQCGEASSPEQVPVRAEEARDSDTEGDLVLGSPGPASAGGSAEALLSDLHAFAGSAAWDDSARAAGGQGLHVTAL
The experiment in a line: Inhibitory activity against Tyrosine phosphatase from Yersinia (Yop protein); no inhibition.

In assay [2] the target is T2, Alkaline phosphatase, tissue-nonspecific isozyme (Rattus norvegicus) (UniProt P08289).
T2 sequence (whole entry): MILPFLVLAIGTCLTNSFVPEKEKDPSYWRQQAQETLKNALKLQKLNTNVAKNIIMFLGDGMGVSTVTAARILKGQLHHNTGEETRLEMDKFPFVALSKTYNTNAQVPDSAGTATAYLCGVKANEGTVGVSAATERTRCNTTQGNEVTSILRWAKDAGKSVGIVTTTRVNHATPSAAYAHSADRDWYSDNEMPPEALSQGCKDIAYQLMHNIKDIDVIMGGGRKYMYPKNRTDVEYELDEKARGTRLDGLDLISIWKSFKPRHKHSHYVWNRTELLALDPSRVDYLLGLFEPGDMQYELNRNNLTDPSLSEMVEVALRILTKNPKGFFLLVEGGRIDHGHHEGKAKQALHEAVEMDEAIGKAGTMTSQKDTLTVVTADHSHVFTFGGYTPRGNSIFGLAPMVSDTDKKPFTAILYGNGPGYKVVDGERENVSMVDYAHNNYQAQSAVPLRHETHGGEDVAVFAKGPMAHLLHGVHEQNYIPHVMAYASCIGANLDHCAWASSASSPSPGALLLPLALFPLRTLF
Briefly: Inhibitory activity against Escherichia coli Alkaline Phosphatase; no inhibition.

For `O=C(O)c1cccc2ccc(CP(=O)(O)O)cc12`, the NI result in assay [1] is “inactive”.

As to `O=P(O)(O)Cc1ccccc1`, the NI entry in assay [2] and in assay [1] was “inactive” each time.

Take `O=C(O)c1cccc2ccc(CP(O)(O)=S)cc12`: the NI result in assay [2] was “inactive”.

For `COC(=O)CCCCCP(O)(O)=S`, the NI result in assay [2] and in assay [1] was “inactive” in each case.

As for `O=C(O)CCCCCP(=O)(O)O`, in assay [2], the NI entry is “inactive”.

Regarding `O=C(O)CCCCCP(O)(O)=S`, in assay [2], the NI entry is “inactive”.
